For test [1], the system named is Coxiella burnetii. Put plainly: Antimicrobial activity against compound-intermediate susceptible Coxiella burnetii Nine-Mile obtained from patient with acute Q fever infected in african green monkey Vero cells after 24 hrs by shell vial assay. As to conditions: strain Nine-Mile.
For test [2], the system named is Coxiella burnetii. Put plainly: Antimicrobial activity against compound-intermediate susceptible Coxiella burnetii isolate CP7 obtained from patient with acute Q fever infected in african green monkey Vero cells after 24 hrs by shell vial assay. Particulars: strain isolate CP7, Vero.
Test [3] deals with Coxiella burnetii. Put plainly: Antimicrobial activity against compound-intermediate susceptible Coxiella burnetii isolate CP2 obtained from patient with acute Q fever infected in african green monkey Vero cells after 24 hrs by shell vial assay. Particulars: strain isolate CP2, Vero.
In test [4] the test system is Coxiella burnetii. Put plainly: Antimicrobial activity against compound-intermediate susceptible Coxiella burnetii isolate CP6 obtained from patient with acute Q fever infected in african green monkey Vero cells after 24 hrs by shell vial assay. Particulars: strain isolate CP6, Vero.
Test [5] concerns Coxiella burnetii. Nature of the test: Antimicrobial activity against compound-intermediate susceptible Coxiella burnetii isolate CP3 obtained from patient with acute Q fever infected in african green monkey Vero cells after 24 hrs by shell vial assay. As to conditions: strain isolate CP3, Vero.
Test [6] has as its system Coxiella burnetii. Nature of the test: Antimicrobial activity against compound-intermediate susceptible Coxiella burnetii isolate CP8 obtained from patient with acute Q fever infected in african green monkey Vero cells after 24 hrs by shell vial assay. Particulars: strain isolate CP8, Vero.
Test [7] concerns Coxiella burnetii. Put plainly: Antimicrobial activity against compound-intermediate susceptible Coxiella burnetii isolate CP5 obtained from patient with acute Q fever infected in african green monkey Vero cells after 24 hrs by shell vial assay. As to conditions: strain isolate CP5, Vero.
For test [8], the system named is Coxiella burnetii. Nature of the test: Antimicrobial activity against compound-intermediate susceptible Coxiella burnetii isolate CP4 obtained from patient with acute Q fever infected in african green monkey Vero cells after 24 hrs by shell vial assay. As to conditions: strain isolate CP4, Vero. Type of test: functional.

For 3 compounds, MIC results are on record in ChEMBL document CHEMBL1649456 (Antimicrob Agents Chemother, 2009).

Structures are written as SMILES. Converted amounts (≈) assume the structure as drawn.

For `CC[C@H]1OC(=O)[C@H](C)[C@@H](O[C@H]2C[C@@](C)(OC)[C@@H](O)[C@H](C)O2)[C@H](C)[C@@H](O[C@@H]2O[C@H](C)C[C@H](N(C)C)[C@H]2O)[C@](C)(OC)C[C@@H](C)C(=O)[C@H](C)[C@@H](O)[C@]1(C)O` [CLARITHROMYCIN], the MIC in the test with Coxiella burnetii [1], in the test on Coxiella burnetii [2], in the test on Coxiella burnetii [3], against Coxiella burnetii [4], in the test with Coxiella burnetii [5] and against Coxiella burnetii [6] was 1 µg/mL (≈ 1.34 µM) throughout. In addition, the MIC in the test on Coxiella burnetii [7] and in the test on Coxiella burnetii [8] was 1 µg/mL (≈ 1.34 µM) throughout.

In the case of `C[C@H]1c2cccc(O)c2C(=O)C2=C(O)[C@]3(O)C(=O)C(C(N)=O)=C(O)[C@@H](N(C)C)[C@@H]3[C@@H](O)[C@@H]21.O` [DOXYCYCLINE], the MIC in the test with Coxiella burnetii [1], against Coxiella burnetii [2], against Coxiella burnetii [3], against Coxiella burnetii [4], in the test with Coxiella burnetii [5] and with Coxiella burnetii [6] was 0.5 µg/mL throughout. Also, in the test with Coxiella burnetii [7], the MIC (commonly the least concentration at which growth counts as inhibited) turned out to be 0.5 µg/mL.

For the compound `N[C@@H]1[C@H]2CN(c3nc4c(cc3F)c(=O)c(C(=O)O)cn4-c3ccc(F)cc3F)C[C@@H]12` [TROVAFLOXACIN], the MIC against Coxiella burnetii [1], with Coxiella burnetii [2], against Coxiella burnetii [3], in the test on Coxiella burnetii [4], in the test on Coxiella burnetii [5] and in the test with Coxiella burnetii [6] was 0.5 µg/mL (≈ 1.2 µM) throughout. In addition, the MIC in the test with Coxiella burnetii [7] and in the test with Coxiella burnetii [8] was 0.5 µg/mL (≈ 1.2 µM) each time.
